Anti-infective test results gathered from many reports (values: NIAID ChemDB through PubChem).

Shared fields: tests in culture; organism: Plasmodium falciparum; endpoint: EC50

Blank or dashed fields: not listed here.

SMILES,changes,conditions,cells,method,strain,result
NC1=Nc2ccc(Cl)cc2C1(O)C1CC1,-,-,-,-,Dd2,0.465 µM
COC(=O)C1=C(C(=O)OC)C2N(Cc3ccccc3)c3ccccc3[C@@]23C[C@@H](C(=O)OC)N(S(=O)(=O)c2ccc(Br)cc2)C3=N1,-,-,-,SYBR Green / fluorescence,HB3 Dd2,1.6 µM
COc1cc2nc(N3CCCN(C)CC3)nc(NC3CCN(Cc4ccccc4)CC3)c2cc1OC,-,-,-,fluorescence,W2,0.052 µM
CC[C@H]1OC(=O)[C@H](C)[C@@H](OC2C[C@@](C)(OC)[C@@H](O)[C@H](C)O2)[C@H](C)[C@@H](OC2O[C@H](C)C[C@H](N(C)C)[C@H]2O)[C@](C)(OC2C[C@@H](N(C)C)[C@@H](O)[C@H](C)O2)C[C@@H](C)C(=O)[C@H](C)[C@@H](O)[C@]1(C)O,-,120 h,RBC,fluorescence,W2 Mef,0.72 µM
COc1ccc(Nc2nc(NCCCNc3ccnc4cc(Cl)ccc34)nc(N3CCOCC3)n2)cc1,-,-,-,-,W2,0.15 µM
NC1=Nc2ccc(Cl)cc2C1(O)c1ccc(S(N)(=O)=O)cc1,-,-,-,-,Dd2,>5 µM
C[C@H]1CCc2c([nH]c3ccccc23)[C@@]2(N1)C(=O)Nc1ccc(Cl)cc12,KAE609-resistant (I398F/P990R/D1247Y),-,-,SYBR Green / fluorescence,KAE609R-1,0.328 µM
NC(=O)C(CCCC[NH3+])NC(=O)CCCCCCCNC(=O)C(N)CCCC[NH3+],-,-,-,hypoxanthine uptake,FCR3,260 µM
C[C@H]1Cc2c([nH]c3cc(Cl)c(F)cc23)[C@@]2(N1)C(=O)Nc1ccc(Cl)cc12,KAE609-resistant (D1247Y),-,-,SYBR Green / fluorescence,KAE609R-3,0.00412 µM
COc1ccc(Nc2nc(NCCCCNc3ccnc4cc(Cl)ccc34)nc(N3CCOCC3)n2)cc1,-,-,-,-,D6,0.07 µM
CCCCCCCC(=O)NC(CCCC[NH3+])C(=O)NCCCCCCCC(=O)NC(CCCC[NH3+])C(=O)NCCCCCCCC(=O)NC(CCCC[NH3+])C(=O)NCCCCCCCC(=O)NC(CCCC[NH3+])C(N)=O,-,-,-,hypoxanthine uptake,FCR3,15 µM
CCOC(=O)C1=C(C(=O)OCC)C2N(Cc3ccccc3C(F)(F)F)c3ccccc3[C@@]23C[C@@H](C(=O)OC)N(S(=O)(=O)c2ccc(C)cc2)C3=N1,-,-,-,SYBR Green / fluorescence,HB3 Dd2,0.6 µM
COC(=O)c1cccc(C2(O)C(N)=Nc3ccc(Cl)cc32)c1,-,-,-,-,Dd2,1.578 µM
CC[C@H]1OC(=O)[C@H](C)[C@@H](OC2C[C@@](C)(OC)[C@@H](O)[C@H](C)O2)[C@H](C)[C@@H](OC2O[C@H](C)C[C@H](N(C)C)[C@H]2O)[C@](C)(OC2C[C@H](N)[C@H](O)[C@H](C)O2)C[C@@H](C)C(=O)[C@H](C)[C@@H](O)[C@]1(C)O,-,48 h,RBC,fluorescence,3D7,38.2 µM
CCN(CC)CCCC(C)Nc1ccnc2cc(Cl)ccc12,CQ-resistant,-,Human dermal fibroblasts,MTT,W2,0.2 µg/mL
CC(C)CC1(O)C(N)=Nc2ccc(Cl)cc21,-,-,-,-,Dd2,0.27 µM
O=C1[C@@H](NCCNc2ccnc3cc(Cl)ccc23)[C@@H](/C=C/c2ccccc2)N1C1CCCCCC1,Chloroquine-resistant,-,-,flow cytometry,W2,0.1223 µM
CCCCCC(=O)CCCCCC(=O)NC(CCCC[NH3+])C(=O)NC(CCCC[NH3+])C(=O)NCCCCCCCCCCCC(=O)NC(CCCC[NH3+])C(N)=O,-,-,-,hypoxanthine uptake,NF54,>10 µM
C[C@H]1Cc2c([nH]c3cc(F)c(F)cc23)[C@@]2(N1)C(=O)Nc1ccc(Cl)cc12,Multidrug-resistant,-,-,SYBR Green / fluorescence,Dd2 (EF1),0.000428 µM
Cc1c(O)c2ccccc2c2c1sc(NC1CCCCC1)[n+]2CCCN1CCN(C)CC1,-,-,-,hypoxanthine uptake,Dd2,0.17 µM
CCN(CC)CCCC(C)Nc1ccnc2cc(Cl)ccc12,-,-,-,radiometric,Dd2,0.1 µM
CC(=O)c1cccc(C2(O)C(N)=Nc3ccc(Cl)cc32)c1,-,-,-,-,Dd2,1.525 µM
Cc1ccc(N2C(=O)[C@H](NC(=O)CCNc3ccnc4cc(Cl)ccc34)[C@@H]2/C=C/c2ccccc2)cc1,Chloroquine-resistant,-,-,flow cytometry,W2,0.1125 µM
N=C(N)c1ccc(NCCCCCCNc2ccc(C(=N)N)cc2)cc1,-,-,-,hypoxanthine uptake,D6,0.036 µM
CC1(C)C2CC[C@@]3(C)C4c5ccccc5N(C(=O)O)C4CC3[C@@]2(C)CC[C@H]1O,-,-,-,hypoxanthine uptake / radiometric,NF54,29.1 µM
OCCCNc1nc(NCCCCNc2ccnc3cc(Cl)ccc23)nc(N2CCCCC2)n1,-,-,-,-,D6,0.06 µM
N=C(N)c1ccc(NCCCCCNc2ccc(C(=N)N)cc2N)c(N)c1,-,-,-,hypoxanthine uptake,W2,0.183 µM
CC(C)CN1C(=O)[C@H](NC(=O)CCCNc2ccnc3cc(Cl)ccc23)[C@@H]1/C=C/c1ccccc1,Chloroquine-resistant,-,-,flow cytometry,W2,0.6756 µM
CCCCCC,-,-,Human dermal fibroblasts,MTT,D10,43.4 µg/mL
CC(C)CN1C(=O)[C@@H](NCCCNc2ccnc3cc(Cl)ccc23)[C@H]1/C=C/c1ccccc1,Chloroquine-resistant,-,-,flow cytometry,W2,0.4103 µM
COc1cc2c(cc1OC)[C@H]1O[C@](CCCCN3C(=O)c4ccccc4C3=O)(C2)OC2=C1C(=O)CC(C)(C)C2,-,-,-,SYBR Green / fluorescence,HB3 Dd2,3.8 µM
CCCCCCCCCCCC(=O)NC(CCCC[NH3+])C(=O)NCCCC(=O)NC(CCCC[NH3+])C(=O)NCCCC(=O)NC(CCCC[NH3+])C(=O)NCCCC(=O)NC(CCCC[NH3+])C(N)=O,-,-,-,hypoxanthine uptake,NF54,>10 µM
COc1cc(C(=N)N)ccc1OCCCCOc1ccc(C(=N)N)cc1OC,-,-,-,hypoxanthine uptake,W2,0.403 µM
COC(=O)C1=C(C)N(Cc2ccc(C(F)(F)F)cc2)C(=NCc2cccc(C(F)(F)F)c2)NC1c1ccccc1,-,-,-,SYBR Green / fluorescence,GB4,0.04 µM
O=C(CCCNc1ccnc2cc(Cl)ccc12)N[C@H]1C(=O)N(C2CCCCCC2)[C@H]1/C=C/c1ccccc1,Chloroquine-resistant,-,-,flow cytometry,W2,0.2758 µM
O=C(Nc1cc(C(F)(F)F)ccc1-n1cncn1)C1(c2cccc(C(F)(F)F)c2)CC1,-,-,-,-,FCR3,0.007 µM
COc1ccc2c(c1)C(O)(c1ccccc1)C(N)=N2,-,-,-,-,Dd2,0.385 µM
OCCN1CCN(C(c2ccccc2)c2ccccc2)CC1,-,-,-,SYBR Green / fluorescence,D6,>2.5 µM
NCCCCCCCC(=O)NC(CCCC[NH3+])C(=O)NCCCCCCCC(=O)NC(CCCC[NH3+])C(=O)NCCCCCCCC(=O)NC(CCCC[NH3+])C(=O)NCCCCCCCC(=O)NC(CCCC[NH3+])C(=O)NCCCCCCCC(=O)NC(CCCC[NH3+])C(=O)NCCCCCCCC(=O)NC(CCCC[NH3+])C(N)=O,-,-,-,hypoxanthine uptake,FCR3,71 µM
Fc1ccc(Nc2nc(NCCCCNc3ccnc4cc(Cl)ccc34)nc(N3CCOCC3)n2)cc1,-,-,-,-,D6,0.24 µM
Cc1c(O)c2ccccc2c2nc(NCCCN3CCOCC3)sc12,-,-,-,hypoxanthine uptake,D10,0.6 µM
O=C1[C@@H](NCCNc2ccnc3cc(Cl)ccc23)[C@@H](/C=C/c2ccccc2)N1C1CCCCC1,Chloroquine-resistant,-,-,flow cytometry,W2,0.1389 µM
CCC1OC(O)(C(C)(O)C(=O)N[C@@H]2C(=O)N3NCCC[C@@H]3C(=O)N(O)[C@@H](COC)C(=O)N3NCC(OC4CC(OC)C(OC5CC(OC)C(O)C(C)O5)C(C)O4)=CC3C(=O)N3CC[C@@H](O)[C@H]3C(=O)N(O)[C@@H](CC)C(=O)O[C@H]2C(C)C)CCC1C(=O)C(C)(O)CC,MDR,-,-,absorbance,Dd2,0.007 µM
Cc1ccc(N2C(=O)[C@H](NC(=O)CNc3ccnc4cc(Cl)ccc34)[C@@H]2/C=C/c2ccccc2)cc1,Chloroquine-resistant,-,-,flow cytometry,W2,0.4827 µM
CC(C)n1c2c(c3ccccc31)C(=O)c1ccc3ccccc3c1C2=O,-,-,-,broth dilution,FRC-3,0.64 µM
N=C(N)c1ccc(NCCCCNc2ccc(C(=N)N)cc2N)c(N)c1,-,-,-,hypoxanthine uptake,W2,0.522 µM
CCCCCCCC(=O)NC(CCCC[NH3+])C(=O)NCCCCCCCC(=O)NC(CCCC[NH3+])C(=O)NCCCCCCCC(=O)NC(CCCC[NH3+])C(=O)NCCCCCCCC(=O)NC(CCCC[NH3+])C(=O)NCCCCCCCC(=O)NC(CCCC[NH3+])C(=O)NCCCCCCCC(=O)NC(CCCC[NH3+])C(N)=O,-,-,-,hypoxanthine uptake,FCR3,44 µM
O=C(CNc1ccnc2cc(Cl)ccc12)N[C@H]1C(=O)N(C2CCCCCC2)[C@H]1/C=C/c1ccccc1,Chloroquine-resistant,-,-,flow cytometry,W2,1.145 µM
Cc1c(O)c2ccccc2c2c1sc(NC1CCCCC1)[n+]2CCCN1CCOCC1,-,-,-,hypoxanthine uptake,D10,0.33 µM
CCN(CC)CCCC(C)Nc1ccnc2cc(Cl)ccc12,-,-,Red blood cells,flow cytometry,W2,0.186 µM
COc1cc(C2=NCCN2)ccc1OCCCOc1ccc(C2=NCCN2)cc1OC,-,-,-,hypoxanthine uptake,D6,0.177 µM
CCN(CC)CCCC(C)Nc1ccnc2cc(Cl)ccc12,-,-,human red blood cells,LDH / absorbance,W2,0.12 µM
CCCCCC(CCCCCC=O)NC(CCCC[NH3+])C(=O)NC(CCCC[NH3+])C(=O)NCCCCCCCCCCCC(=O)NC(CCCC[NH3+])C(N)=O,-,-,-,hypoxanthine uptake,NF54,2.7 µM
N=C(N)c1ccc(OCCOc2ccc(C(=N)N)cc2[N+](=O)[O-])c([N+](=O)[O-])c1,-,-,-,hypoxanthine uptake,D6,1.092 µM
CCCCCC[C@]12Cc3cc(OC)c(OC)cc3[C@@H](O1)c1c(c3ccccc3n(C)c1=O)O2,-,-,-,SYBR Green / fluorescence,HB3 Dd2,2.5 µM
CCCCCCCCCCCC(=O)NC(CCCC[NH3+])C(=O)NCCCC(=O)NC(CCCC[NH3+])C(=O)NCCCC(=O)NC(CCCC[NH3+])C(N)=O,-,-,-,hypoxanthine uptake,NF54,>10 µM
CC(Nc1ccc2c(c1)CCC2)C(=O)Nc1cc(C(F)(F)F)ccc1-n1cncn1,-,-,-,-,3D7A,0.146 µM
COC(=O)C1=C(C(=O)OC)C2N(Cc3ccccc3)c3ccccc3[C@@]23C[C@@H](C(=O)OC)N(S(=O)(=O)c2ccc(C(F)(F)F)cc2)C3=N1,-,-,-,SYBR Green / fluorescence,CP250,1.5 µM
N=C(N)c1ccc(OCCCOc2ccc(C(=N)N)cc2)cc1,-,-,-,hypoxanthine uptake,D6,0.038 µM

The first 3 rows once more:

SMILES,changes,conditions,cells,method,strain,result
NC1=Nc2ccc(Cl)cc2C1(O)C1CC1,-,-,-,-,Dd2,0.465 µM
COC(=O)C1=C(C(=O)OC)C2N(Cc3ccccc3)c3ccccc3[C@@]23C[C@@H](C(=O)OC)N(S(=O)(=O)c2ccc(Br)cc2)C3=N1,-,-,-,SYBR Green / fluorescence,HB3 Dd2,1.6 µM
COc1cc2nc(N3CCCN(C)CC3)nc(NC3CCN(Cc4ccccc4)CC3)c2cc1OC,-,-,-,fluorescence,W2,0.052 µM

Conditions beyond the fields shown may differ between rows. ECn: concentration that inhibits the pathogen or its effect by n%.